Activity calls are given as the source filed them. No cut-off for these calls is given here.
System: Mycobacterium tuberculosis variant bovis
Assay: Antibacterial activity against Mycobacterium bovis BCG harboring pTIC6-fbpA overexpressing Ag85A by end point resazurin assay

SMILES: O=c1c2ccccc2[se]n1-c1ccccc1
- Activity: inactive
